{"source": "patent US20180318311A1", "about": "“TRICYCLIC 2-QUINOLINONES AS ANTIBACTERIALS” (priority 2017, published 2018)", "tested_on": "S. aureus NB01006-AVR005, gyrA (S84L), grlA (580F) and grlB (E471K)", "assay": "microbe, parasite or virus in culture", "type": "cell-based", "details": "Staphylococcus aureus, 20 h, read-out: Antibacterial activity (MIC) NB01006-AVR005"}
{"smiles": "C[C@H]1COc2c(N3CC[C@@H](C4(N)CC4)C3)ccc3cc(C(=O)O)c(=O)n1c23", "note": "[Example 12.3, (S)-10-((R)-3-(1-aminocyclopropyl)pyrrolidin-1-yl)-3-methyl-5-oxo-2,3-dihydro-5H-[1,4]oxazino[2,3,4-ij]quinoline-6-carboxylic acid]", "values": [{"measurement": "MIC", "result": "1 to 32", "unit": "µg/mL"}]}
